Tested on: HepG2-2.15 cells
Assay: Confocal microscopy of FITC-labeled peptide (intracellular location)
Type: cell-based, human
Conditions: GV1001-FITC

The chains behind the UniProt entries cited, without tags or fusion partners. Where a name states a change or a piece, a line headed by the entry shows the natural chain unless it says otherwise.
UniProt O14746: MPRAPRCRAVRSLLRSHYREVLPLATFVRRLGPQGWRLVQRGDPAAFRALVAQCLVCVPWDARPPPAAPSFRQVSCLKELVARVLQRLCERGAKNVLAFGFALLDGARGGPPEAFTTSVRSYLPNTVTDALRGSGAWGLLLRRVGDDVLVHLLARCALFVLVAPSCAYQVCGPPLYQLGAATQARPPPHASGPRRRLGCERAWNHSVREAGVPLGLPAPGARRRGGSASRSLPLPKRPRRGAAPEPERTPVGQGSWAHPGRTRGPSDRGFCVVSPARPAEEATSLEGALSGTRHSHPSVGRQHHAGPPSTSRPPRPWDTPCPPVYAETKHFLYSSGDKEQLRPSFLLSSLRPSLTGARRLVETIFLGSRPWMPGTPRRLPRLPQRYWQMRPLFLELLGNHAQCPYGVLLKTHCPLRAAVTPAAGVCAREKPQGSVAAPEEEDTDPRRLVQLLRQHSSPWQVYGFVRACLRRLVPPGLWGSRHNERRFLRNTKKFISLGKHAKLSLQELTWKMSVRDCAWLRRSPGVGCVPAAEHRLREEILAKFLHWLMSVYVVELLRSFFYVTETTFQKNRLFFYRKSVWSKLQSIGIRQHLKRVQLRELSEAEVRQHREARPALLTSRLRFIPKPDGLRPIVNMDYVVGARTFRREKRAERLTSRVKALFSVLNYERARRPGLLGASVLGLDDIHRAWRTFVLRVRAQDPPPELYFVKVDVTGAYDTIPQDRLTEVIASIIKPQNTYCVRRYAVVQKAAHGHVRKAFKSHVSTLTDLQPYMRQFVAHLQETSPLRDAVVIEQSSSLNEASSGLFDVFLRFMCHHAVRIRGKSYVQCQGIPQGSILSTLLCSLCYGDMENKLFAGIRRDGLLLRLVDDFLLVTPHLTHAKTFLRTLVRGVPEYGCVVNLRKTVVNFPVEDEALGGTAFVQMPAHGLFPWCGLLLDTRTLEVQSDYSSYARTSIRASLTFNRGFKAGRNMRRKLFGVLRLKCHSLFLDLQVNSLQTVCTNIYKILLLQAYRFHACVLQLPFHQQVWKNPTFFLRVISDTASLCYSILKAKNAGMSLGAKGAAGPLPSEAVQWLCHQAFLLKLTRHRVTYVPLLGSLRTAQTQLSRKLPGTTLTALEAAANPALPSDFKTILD

Question: Which “intracellular location of peptide” value (with Bafilomycin A1 (100 nM)) does the source give for “GV1001-FITC: Fluorescein isothiocyanate (FITC)-labeled GV1001 peptide (EARPALLTSRLRFIPK; FITC label; UniProt O14746 611-626, looked up, fragment)” here?
Answer: not diffused to the cytosolic space

Question: What about the “intracellular location of peptide” value (without Bafilomycin A1) of the same substance?
Answer: diffused or released throughout the cytosolic space

Reference: PMC7253625, “A Telomerase-Derived Peptide Exerts an Anti-Hepatitis B Virus Effect via Mitochondrial DNA Stress-Dependent Type I Interferon Production” (Frontiers in Immunology, 2020)
